Like-named read-outs stand apart in the source and are kept apart here.
Key:
primary rat hepatocytes = details: for Formation rate: rat, calculated from medium samples, linear time points
[1] = system: primary human hepatocytes; details: for concentration in culture medium: human hepatocytes; for Formation rate: human, calculated from medium samples, linear time points
[2] = system: primary mouse hepatocytes

COc1cc2c(c3oc(=O)c4c(c13)CC[C@@H]4O)[C@@H]1C=CO[C@@H]1O2
detection in culture medium (primary rat hepatocytes; rat hepatocytes, 1 µM and 10 µM AFB1, up to 24 h): detected only in trace amounts | Formation rate (primary rat hepatocytes; 1 µM AFB1 (2 nmol)): 306 pmol/h | Formation rate (primary rat hepatocytes; 10 µM AFB1 (20 nmol)): 6 702 pmol/h | concentration in culture medium ([1]; 1 µM AFB1, within the first 4 h, constant up to 24 h): 2 nM | concentration in culture medium ([1]; 10 µM AFB1, reached in the first 4 h, then constant until 24 h): 50 nM | Formation rate ([1]; 1 µM AFB1 (2 nmol)): 1 109 pmol/h | Formation rate ([1]; 10 µM AFB1 (20 nmol)): 18 923 pmol/h | highest concentration in culture medium ([2]; mouse hepatocytes, 10 µM AFB1, within 2 h): 1 nM | Formation rate ([2]; mouse, 10 µM AFB1 (20 nmol), calculated from medium samples, linear time points): 1 163 pmol/h

Source: PMC10567917 (Archives of Toxicology, 2023)
